Test results: patent US20060128614A1, “Antimicrobial peptides with reduced hemolysis and methods of their use” (priority 2002, published 2006)
Non-standard residues stand in square brackets, D forms with d. Residues, ends and D or L forms follow the SMILES beside them. 1Nal = N[C@@H](Cc1cccc2ccccc12)C(=O)O; 2Nal = N[C@@H](Cc1ccc2ccccc2c1)C(=O)O

Assays:
[1] = Secondary structure by CD spectroscopy, first experiment; assay type: physicochemical; settings: for Peptide conformation in phosphate buffer: 30 μM peptide
[2] = Acrylamide fluorescence quenching (Stern-Volmer); assay type: binding; settings: acrylamide quencher
[3] = CD spectra of Pac-625 in water, micelles and TFE; assay type: physicochemical; settings: 100 μM peptide, pH 4.5, 25° C.
[4] = Nal fluorescence emission maximum with PE/PG vesicles; assay type: binding; settings: PE/PG (7:3, w/w) vesicles, lipid/peptide molar ratio 1000:1
[5] = Fluorescence emission spectra in phosphate buffer with or without SDS; assay type: binding; settings: 1.5 μM peptide
[6] = Nal fluorescence emission maximum with PC/cholesterol vesicles; assay type: binding; settings: PC/cholesterol (10:1, w/w) vesicles, lipid/peptide molar ratio 1000:1
[7] = 10 mM sodium phosphate buffer pH 7.2

SMILES | Peptide conformation in phosphate buffer [1, 7] | Peptide conformation in SDS [1] | Nal emission maximum, PE/PG [4] | Nal emission maximum, PC/cholesterol [6] | also measured
CC[C@H](C)[C@@H]1NC(=O)[C@H](Cc2ccc3ccccc3c2)NC(=O)[C@H](CCCNC(=N)N)NC(=O)[C@H](CCCNC(=N)N)NC(=O)[C@H](Cc2ccc3ccccc3c2)NC(=O)[C@H](CCCCN)NC1=O [Pac-401 C, K (2-Nal) R R (2-Nal) I] (cyclo(K[2Nal]RR[2Nal]I); ring closure inferred) | unordered | unordered | – | – | –
CC[C@H](C)[C@@H]1NC(=O)[C@H](Cc2ccc3ccccc3c2)NC(=O)[C@H](CCCCN)NC(=O)[C@H](CCCNC(=N)N)NC(=O)[C@H](Cc2ccc3ccccc3c2)NC(=O)[C@H](CCCCN)NC1=O [Pac-403 C, K (2-Nal) I K (2-Nal) R] (cyclo(K[2Nal]IK[2Nal]R); ring closure inferred) | unordered | unordered | – | – | –
CC[C@H](C)[C@@H]1NC(=O)[C@H](Cc2ccc3ccccc3c2)NC(=O)[C@H](CCCNC(=N)N)NC(=O)[C@H](C(C)C)NC(=O)[C@H](Cc2ccc3ccccc3c2)NC(=O)[C@H](CCCNC(=N)N)NC(=O)[C@H](CCCNC(=N)N)NC(=O)[C@H](Cc2ccc3ccccc3c2)NC(=O)[C@H](CCCCN)NC1=O [Pac-625 C, K (2-Nal) R R (2-Nal) V R (2-Nal) I] (cyclo(K[2Nal]RR[2Nal]VR[2Nal]I); ring closure inferred) | unordered | unordered | – | – | –
CC[C@H](C)[C@H](NC(=O)[C@H](Cc1ccc2ccccc2c1)NC(=O)[C@H](CCCNC(=N)N)NC(=O)[C@@H](NC(=O)[C@H](Cc1ccc2ccccc2c1)NC(=O)[C@H](CCCNC(=N)N)NC(=O)[C@H](CCCNC(=N)N)NC(=O)[C@H](Cc1ccc2ccccc2c1)NC(=O)[C@H](CCCCN)NC(C)=O)C(C)C)C(N)=O [Pac-625 L, K (2-Nal) R R (2-Nal) V R (2-Nal) I] (Ac-K[2Nal]RR[2Nal]VR[2Nal]I-NH2) | – | slightly structured | 334 ± 2 nm | 338 ± 2 nm | effective Stern-Volmer constant KSV (eff) ([2]; absence of SDS micelles): 20.06 ± 0.023 M⁻¹; effective Stern-Volmer constant KSV (eff) ([2]; presence of SDS micelles): 14.97 ± 0.023 M⁻¹; conformation by CD in aqueous solution ([3]; aqueous solution): random coil conformation; conformation by CD with micelles of SDS, DPC, LPC12 or TFE ([3]; 10 mM SDS, 10 mM DPC, 1 mM LPC12, 50% TFE): more ordered structure; fluorescence emission maximum ([5]; 20 mM sodium phosphate buffer pH 4.5, without SDS): 356.5 nm; blue shift of fluorescence spectrum on adding SDS ([5]; 25 mM SDS, pH 4.5): 5.0 nm; Peptide conformation in phosphate buffer ([1]; 10 mM sodium phosphate buffer pH 7.2, listed as Pac 625 L): unordered; Peptide conformation in phosphate buffer ([1]; 10 mM sodium phosphate buffer pH 7.2, listed as Pac-625): unordered structure
CC[C@H](C)[C@@H]1NC(=O)[C@H](CCCCN)NC(=O)[C@H](Cc2ccc3ccccc3c2)NC(=O)[C@H](CCCNC(=N)N)NC(=O)[C@H](CCCNC(=N)N)NC(=O)[C@H](Cc2ccc3ccccc3c2)NC(=O)[C@H](C(C)C)NC(=O)[C@H](CCCNC(=N)N)NC(=O)[C@H](Cc2ccc3ccccc3c2)NC1=O [Pac-626 C, I (2-Nal) R V (2-Nal) R R (2-Nal) K] (cyclo(I[2Nal]RV[2Nal]RR[2Nal]K); ring closure inferred) | unordered | unordered | – | – | –
CC[C@H](C)[C@H](NC(C)=O)C(=O)N[C@@H](Cc1ccc2ccccc2c1)C(=O)N[C@@H](CCCNC(=N)N)C(=O)N[C@H](C(=O)N[C@@H](Cc1ccc2ccccc2c1)C(=O)N[C@@H](CCCNC(=N)N)C(=O)N[C@@H](CCCNC(=N)N)C(=O)N[C@@H](Cc1ccc2ccccc2c1)C(=O)N[C@@H](CCCCN)C(N)=O)C(C)C [Pac-626 L, I (2-Nal) R V (2-Nal) R R (2-Nal) K] (Ac-I[2Nal]RV[2Nal]RR[2Nal]K-NH2) | – | slightly structured | 334 ± 2 nm | 339 ± 2 nm | Peptide conformation in phosphate buffer ([1]; 10 mM sodium phosphate buffer pH 7.2, listed as Pac 626 L): unordered; Peptide conformation in phosphate buffer ([1]; 10 mM sodium phosphate buffer pH 7.2, listed as Pac-626): unordered structure
CC[C@H](C)[C@H](NC(=O)[C@H](Cc1cccc2ccccc12)NC(=O)[C@H](CCCNC(=N)N)NC(=O)[C@@H](NC(=O)[C@H](Cc1cccc2ccccc12)NC(=O)[C@H](CCCNC(=N)N)NC(=O)[C@H](CCCNC(=N)N)NC(=O)[C@H](Cc1cccc2ccccc12)NC(=O)[C@H](CCCCN)NC(C)=O)C(C)C)C(N)=O [Pac-627 L, K (1-Nal) R R (1-Nal) V R (1-Nal) I] (Ac-K[1Nal]RR[1Nal]VR[1Nal]I-NH2) | – | – | 334 ± 2 nm | 339 ± 2 nm | –
